Series [1] deals with Trypanosoma brucei brucei. Briefly: Antitrypanosomal activity against Trypanosoma brucei brucei TC221 after 72 hrs by alamar blue assay.
Series [2] deals with Trypanosoma brucei brucei. Briefly: Antitrypanosomal activity against Trypanosoma brucei brucei TC221 after 48 hrs by alamar blue assay. A general note: Resazurin is reduced to fluorescent resorufin, in cell work by metabolically active cells.
Series [3] is described as follows: Selectivity index, ratio of IC50 for mouse J774.1 cells to IC50 for Trypanosoma brucei brucei TC221 measured after 48 hrs.
A short description of series [4]: Inhibition of Trypanosoma brucei trypanothione reductase using varying levels of trypanothione disulfide as substrate by Lineweaver-burk plot analysis.
The target of series [5] is Rhodesain (Trypanosoma brucei rhodesiense, UniProt Q95PM0). The experiment in a line: Inhibition of Trypanosoma brucei rhodesiense rhodesain using Cbz-Phe-Arg-AMC as substrate measured for 10 mins by spectrofluorometric analysis.
The target of series [6] is Trypanothione reductase (Trypanosoma cruzi, UniProt P28593). Briefly: Competitive inhibition of Trypanosoma cruzi trypanothione reductase using varying levels of trypanothione disulfide as substrate by Lineweaver--burk plot analysis.
A short description of series [7]: Inhibition of human glutathione reductase at 2 uM using glutathione disulfide as substrate relative to control.
The nature of series [8]: Inhibition of human glutathione reductase at 50 uM using glutathione disulfide as substrate relative to control.

Amino acid sequences for entries named in this document (tags omitted). A change or cut given only in a name is not applied to a line headed by its entry. Residues count along the entry.
UniProt Q95PM0, 1-450: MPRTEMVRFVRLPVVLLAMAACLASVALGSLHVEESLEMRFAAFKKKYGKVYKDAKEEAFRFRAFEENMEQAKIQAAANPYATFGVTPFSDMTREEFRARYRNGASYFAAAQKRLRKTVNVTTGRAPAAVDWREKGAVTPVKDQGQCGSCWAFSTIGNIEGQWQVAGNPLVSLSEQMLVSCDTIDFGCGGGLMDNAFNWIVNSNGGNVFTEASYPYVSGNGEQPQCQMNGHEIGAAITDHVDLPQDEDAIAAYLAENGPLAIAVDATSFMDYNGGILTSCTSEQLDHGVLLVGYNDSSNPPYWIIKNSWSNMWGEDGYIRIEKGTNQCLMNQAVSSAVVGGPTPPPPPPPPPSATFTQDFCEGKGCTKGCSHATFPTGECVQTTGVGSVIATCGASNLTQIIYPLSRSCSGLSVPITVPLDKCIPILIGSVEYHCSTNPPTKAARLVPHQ
UniProt P28593: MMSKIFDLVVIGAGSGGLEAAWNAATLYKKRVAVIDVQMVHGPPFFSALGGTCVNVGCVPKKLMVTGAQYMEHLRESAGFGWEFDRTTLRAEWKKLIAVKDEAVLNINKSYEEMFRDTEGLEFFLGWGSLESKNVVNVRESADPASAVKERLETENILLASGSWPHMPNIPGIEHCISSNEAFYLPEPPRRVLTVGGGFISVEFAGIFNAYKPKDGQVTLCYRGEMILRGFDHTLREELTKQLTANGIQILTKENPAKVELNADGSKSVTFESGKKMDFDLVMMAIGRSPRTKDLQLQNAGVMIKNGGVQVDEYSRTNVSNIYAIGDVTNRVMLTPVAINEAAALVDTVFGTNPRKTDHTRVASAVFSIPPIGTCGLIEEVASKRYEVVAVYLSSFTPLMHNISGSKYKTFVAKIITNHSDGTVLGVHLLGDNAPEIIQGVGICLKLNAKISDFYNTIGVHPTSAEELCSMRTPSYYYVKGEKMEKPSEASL

Structures are written as SMILES.

For the compound `c1ccc2c(NCCCNc3c4c(nc5ccccc35)CCCC4)c3c(nc2c1)CCCC3`, the half-inhibitory concentration (IC50) (in general, the concentration at which inhibition is half-maximal) in series [1] was 5600 nM; in series [2] it was 3300 nM. Also, the Ratio IC50 in series [3] amounted to 12.9.
For `c1ccc2c(NCCCCNc3c4c(nc5ccccc35)CCCC4)c3c(nc2c1)CCCC3`, the IC50 in series [1] is 2100 nM; in series [2], 750 nM. For the same compound, the Ratio IC50 in series [3] came to 11.1.
For `c1ccc2c(NCCNc3c4c(nc5ccccc35)CCCC4)c3c(nc2c1)CCCC3` the same measures were 5100 nM, 3600 nM and 12.6.
For `c1ccc2c(NCCCCCCCCCNc3c4c(nc5ccccc35)CCCC4)c3c(nc2c1)CCCC3`, the Ki in series [4] and in series [6] was 400 nM each time. Moreover, the results for the IC50 in series [1], in series [2] and in series [5] were 160 nM, 130 nM and 19400 nM, respectively. For the same compound, in series [3], the Ratio IC50 was found to be 13.8. Besides, the values for the inhibition (INH) in series [7] and in series [8] were 2% and 19%, respectively.
